≈ marks a conversion by molar mass, not a printed value.
How the values were obtained:
[1] = system: WT Mycobacterium tuberculosis H37Rv; experiment: MIC assay; details: for MIC90: WT Mtb grown in a carbohydrate-based medium
human Lpd = human Lpd (Homo sapiens (Human), UniProt P09622); experiment: SPR, human Lpd; type: binding
WT Mtb in mouse BMDM = experiment: Infection of BMDM with Mtb, CFU; details: day 6 post infection, 30 μM
WT Mtb = experiment: Nitrosative stress survival (pH 5.5 with or without 3 mM NaNO2), CFU
HEPG2 cells = experiment: Cytotoxicity in HEPG2 cells
Mtb Lpd = Mtb Lpd (Mycobacterium tuberculosis (strain ATCC 25618 / H37Rv), UniProt P9WHH9); experiment: LPD assay (DTNB assay), Mtb Lpd WT; type: biochemical; details: read-out: LPD IC50
[2] = Microsomal clearance (hLM); details: human liver microsomes

The chains behind the UniProt entries cited, without tags or fusion partners. Residues count along the entry.
UniProt P09622, 36-509 limits assumed: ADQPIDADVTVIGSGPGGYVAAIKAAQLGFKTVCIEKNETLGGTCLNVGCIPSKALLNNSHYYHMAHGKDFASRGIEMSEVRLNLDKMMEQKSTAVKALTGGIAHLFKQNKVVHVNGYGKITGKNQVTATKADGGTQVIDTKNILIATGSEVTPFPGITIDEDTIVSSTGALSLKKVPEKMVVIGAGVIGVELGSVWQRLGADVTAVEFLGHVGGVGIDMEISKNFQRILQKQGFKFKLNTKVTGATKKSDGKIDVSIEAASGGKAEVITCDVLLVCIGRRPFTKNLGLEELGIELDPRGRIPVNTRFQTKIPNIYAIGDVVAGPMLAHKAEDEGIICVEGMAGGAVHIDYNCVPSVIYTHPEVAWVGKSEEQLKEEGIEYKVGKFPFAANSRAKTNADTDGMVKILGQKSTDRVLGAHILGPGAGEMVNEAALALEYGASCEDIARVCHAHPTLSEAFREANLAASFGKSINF
UniProt P9WHH9, whole entry: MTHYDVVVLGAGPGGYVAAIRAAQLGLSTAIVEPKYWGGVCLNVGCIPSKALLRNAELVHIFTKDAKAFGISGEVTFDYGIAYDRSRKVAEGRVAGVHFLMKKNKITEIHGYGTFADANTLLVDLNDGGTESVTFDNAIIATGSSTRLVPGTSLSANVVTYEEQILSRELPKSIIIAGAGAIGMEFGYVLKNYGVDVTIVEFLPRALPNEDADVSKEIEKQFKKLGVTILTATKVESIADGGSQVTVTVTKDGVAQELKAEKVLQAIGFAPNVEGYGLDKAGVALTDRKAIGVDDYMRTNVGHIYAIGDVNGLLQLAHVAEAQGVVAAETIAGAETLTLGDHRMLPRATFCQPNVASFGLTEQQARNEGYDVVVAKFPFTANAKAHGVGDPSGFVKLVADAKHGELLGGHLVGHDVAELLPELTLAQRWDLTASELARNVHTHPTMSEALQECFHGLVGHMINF

Row | Structure (SMILES) | IC50 (Mtb Lpd) [nM] | Human Liver Microsome Stability [2] [µL/min/mg] | also measured
1 | Cc1cc(S(=O)(=O)N(C)CC(=O)Nc2ccn(C)c(=O)c2)c2[nH]ncc2c1 [Example 24, 2-((5-chloro-N-methyl-1H-indazole)-7-sulfonamido)-N-(1-methyl-2-oxo-1,2-dihydropyridin-4-yl)acetamide] | – | – | Mtb MIC90 [1]: 3.1 µM; MIC90 [1]: 3.1 µM (≈ 1.21 µg/mL); SPR t1/2 (human Lpd; Human WT): 1.9 min; SPR t1/2 (human Lpd; Human WT/NADH): 2.7 min; inhibition of growth of Mtb (WT Mtb in mouse BMDM; IFNgama-activated BMDM): 0.5 log10; inhibition of growth of Mtb (WT Mtb in mouse BMDM; naïve BMDM): 1 log10; effect on WT Mtb survival (CFU) (WT Mtb; pH 5.5 alone, same concentrations, 4 days): had no effect; effect on WT Mtb survival (CFU) (WT Mtb; pH 5.5 in the presence of 3 mM NaNO2, 4 days): bactericidal in a concentration-dependent manner; cytotoxicity, no signs up to (HEPG2 cells): > 100 µM
2 | CN(CC(=O)Nc1ccc(N2CCOCC2)c(Cl)c1)S(=O)(=O)c1cc(C(F)F)cc2cn[nH]c12 | 31.9 | 198 | –
3 | Cc1cc(S(=O)(=O)N(C)CC(=O)Nc2ccc(N3CCOCC3)c(F)c2)c2[nH]ncc2c1 | 31 | 46 | –
4 | Cc1cc(S(=O)(=O)N(C)CC(=O)Nc2ccc(N3CCOCC3)c(Cl)c2)c2[nH]ccc2c1 | 153 | 101 | –
5 | Cc1cc(S(=O)(=O)N(C)CC(=O)Nc2ccc(N3CCOCC3)c(C3CC3)c2)c2[nH]ncc2c1 | 21.4 | 164 | –
6 | Cc1cc(S(=O)(=O)N(C)CC(=O)Nc2nc(-c3ccccc3)cs2)c2[nH]ncc2c1 | 70.6 | – | –
7 | Cc1cc(S(=O)(=O)N(C)CC(=O)Nc2ccc(N3CCOCC3)c(Cl)c2)c2[nH]nc(F)c2c1 | 15 | 144 | –
8 | Cc1cc(S(=O)(=O)N(C)CC(=O)Nc2ccc(C#N)c(Cl)c2)c2[nH]ncc2c1 | 29.3 | – | –
9 | CCc1cc(NC(=O)CN(C)S(=O)(=O)c2cc(C)cc3cn[nH]c23)ccc1N1CCOCC1 | 28.7 | 179 | –
10 | CCN(CC(=O)Nc1ccc(N2CCOCC2)c(Cl)c1)S(=O)(=O)c1cc(C)cc2cn[nH]c12 | 46.9 | 131 | –
11 | COc1ccc(NC(=O)CN(C)S(=O)(=O)c2cc(C)cc3cn[nH]c23)cc1Cl [Example 1, N-(3-chloro-4-methoxyphenyl)-2-((N,5-dimethyl-1H-indazole)-7-sulfonamido)acetamide] | – | – | Mtb MIC90 [1]: 25 µM; MIC90 [1]: 25 µM (≈ 10.6 µg/mL)
12 | Cc1cc(S(=O)(=O)N(C)CC(=O)Nc2ncc(C)s2)c2[nH]ncc2c1 | 27.3 | – | –
13 | Cc1cc(S(=O)(=O)N(C)CC(=O)Nc2ccc(N3CCN(C)CC3)c(Cl)c2)c2[nH]ncc2c1 | 44.3 | 46 | –
14 | Cc1cc(S(=O)(=O)N(C)CC(=O)Nc2ccc(N3CCOCC3)cc2)c2[nH]ncc2c1 | 29 | – | Mtb MIC90 [1]: 12 µM
15 | Cc1cc2cn[nH]c2c(S(=O)(=O)N(C)CC(=O)Nc2ccn(C)c(=O)c2)c1C | 86.8 | 58 | –
16 | Cc1cc(S(=O)(=O)N(C)CC(=O)Nc2ncc(-c3ccccc3)s2)c2[nH]ncc2c1 | 39.1 | – | –
17 | CN(CC(=O)Nc1ccn(C)c(=O)c1)S(=O)(=O)c1cc(Br)cc2cn[nH]c12 | – | 36 | –

From patent US20240132480A1, “INHIBITORS OF MYCOBACTERIUM TUBERCULOSIS LIPOAMIDE DEHYDROGENASE” (Cornell University, priority 2021, published 2024)
